Key:
[1] = tested on: V3 loop non-neutralizing mAb 19b; assay: SPR binding to captured V3 loop non-neutralizing mAb 19b; conditions: FIG. 12 and FIG. 13D
Excerpt: (§1) Binding of V3 Bnab to V3-Man9 glycopeptide. […] Both PGT128 and PGT125 are dependent on Man9 glycans on position N332 and N301 (Pejchal et al., 2011), with N332 being the primary glycan. Mabs were captured on anti-Fc IgG immobilized sensor surfaces and the V3-Man9 glycopeptide injected to monitor binding responses on a BIAcore 300 instrument and as previously described (Alam et al., 2013).
(§2) FIG. 13A-D show binding of PGT mAbs to synthetic Man9GlcNAc2 glycan. Binding of V3 Bnab to Man9 glycan. […] Thus, the binding of Man9GlcnAc2 glycan was detected only for V3-glycan dependent PGT BNAbs.

PGT128 = assay: SPR binding to captured mAb PGT128; conditions: mAb captured on anti-Fc IgG surface, glycopeptide injected
Excerpt: as §1, §2

PGT125 = assay: SPR binding to captured mAb PGT125; conditions: mAb captured on anti-Fc IgG surface, glycopeptide injected
Excerpt: as §1, §2

anti-RSV mAb Synagis = assay: SPR binding to negative control mAb Synagis; conditions: FIG. 12
Excerpt: as §1

[2] = FIG. 12, listed as V3-Man9GlcNAc2 glycopeptide

Q: Which results are given for “V3-Man9 glycopeptide: peptide of SEQ ID NO: 8 glycosylated at Asn301 and Asn332 with Man9GlcNAc2, cyclic via endogenous cysteines (clade B JRFL mini-V3) (EINCTRPNNNTRPGEIIGDIRQAHCNISRA; Man9GlcNAc2 at N301, N332; disulfide cyclised)”?
A: binding to non-neutralizing V3 mAb 19b [1]: No binding; binding to PGT128 (PGT128; FIG. 12): preferential binding; binding to PGT128 (PGT128; [2]): specific binding; binding to PGT125 (PGT125; FIG. 12): preferential binding; binding to PGT125 (PGT125; [2]): specific binding; binding to negative control mAb Synagis (anti-RSV mAb Synagis): No binding

From patent US10286057B2, “Cyclic HIV-1 Env V3 glycopeptide immunogens” (DUKE UNIVERSITY, priority 2013, dated 2019)
